From patent publication US6709649B1 (Fondazione Centro San Raffaele Del Monte Tabor, priority 1998, dated 2004)

Assay: general procedure: Fmoc solid-phase peptide synthesis in flow; solid support providing C-terminus amide, substitution 0.50 mmol/g
Conditions: whole synthesis, scale 0.2 mmol

With “Ace-FAYIARPLPRAHIKEYFY-NH2 (N-acetyl, C-amide)” the crude yield (based on the resin substitution degree) was 42%, the crude mass was 0.193 g and the isolated mass was 0.038 g.
